We go through 19 molecules from ChEMBL document CHEMBL1156083, “N,N-Diethyl-4-[(3-hydroxyphenyl)(piperidin-4-yl)amino] benzamide derivatives: the development of diaryl amino piperidines as potent delta opioid receptor agonists with in vivo anti-nociceptive activity in rodent models” (Bioorg Med Chem Lett, 2009).

Protein sequences, listed by entry. Tags and fused reporters are not part of them.
UniProt P41143, whole entry, looked up: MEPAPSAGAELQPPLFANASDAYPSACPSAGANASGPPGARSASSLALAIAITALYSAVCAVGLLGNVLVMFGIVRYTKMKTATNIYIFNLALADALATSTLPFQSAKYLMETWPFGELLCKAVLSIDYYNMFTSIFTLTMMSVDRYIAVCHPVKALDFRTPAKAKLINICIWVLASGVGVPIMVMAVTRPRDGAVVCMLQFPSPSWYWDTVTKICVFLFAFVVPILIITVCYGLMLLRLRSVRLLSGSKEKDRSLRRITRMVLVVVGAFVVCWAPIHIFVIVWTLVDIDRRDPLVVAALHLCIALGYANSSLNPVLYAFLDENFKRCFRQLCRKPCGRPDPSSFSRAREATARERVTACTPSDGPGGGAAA

Molecules are shown by their SMILES.

Experiment [1] is filed under the species Homo sapiens. In words: Selectivity ratio of Ki for human cloned kappa opioid receptor to Ki for human cloned delta opioid receptor.
The species named for experiment [2] is Homo sapiens. In words: Selectivity ratio of Ki for human cloned mu opioid receptor to Ki for human cloned delta opioid receptor.
In experiment [3] the target is Delta-type opioid receptor (Homo sapiens) (UniProt P41143). Briefly: Agonist activity at human delta opioid receptor by [35S]GTPgammaS binding assay relative to SNC80. For orientation: GTPγS resists hydrolysis and so accumulates on activated G proteins.

As to `CCN(CC)C(=O)c1ccc(N(c2cccc(O)c2)C2CCN(CCc3nccn3C)CC2)cc1`, the Ratio Ki was 2690 in the experiment filed under Homo sapiens [1] and 452 in the experiment filed under Homo sapiens [2]. The molecule also yielded an Emax in experiment [3] of 92%.
Turning to `CCN(CC)C(=O)c1ccc(N(c2cccc(O)c2)C2CCN(CCC3CCCCC3)CC2)cc1`, the values for the Ratio Ki in the experiment listed under Homo sapiens [1] and in the experiment filed under Homo sapiens [2] were 315 and 125, respectively. This molecule displayed an Emax in experiment [3] of 106%.
In experiment [3], `CCN(CC)C(=O)c1ccc(N(c2cccc(OC)c2)C2CCN(CCc3ccccc3)CC2)cc1` registered an Emax of 101%.
For `CCN(CC)C(=O)c1ccc(N(c2cccc(OC)c2)C2CCN(CCc3ncc[nH]3)CC2)cc1`, in experiment [3], the Emax was 193%.
In the case of `CCN(CC)C(=O)c1ccc(N(c2cccc(O)c2)C2CCN(CC(C)c3ccccc3)CC2)cc1` (centres undefined), the values for the Ratio Ki in the experiment filed under Homo sapiens [1] and in the experiment listed under Homo sapiens [2] were 1560 and 463, respectively. In addition, the Emax in experiment [3] was found to be 101%.
On to `CCN(CC)C(=O)c1ccc(N(c2cccc(O)c2)C2CCN(CCc3cccc(F)c3)CC2)cc1`, for which the Ratio Ki in the experiment listed under Homo sapiens [1] is 1930; in the experiment filed under Homo sapiens [2], 670. This molecule also registered an Emax in experiment [3] of 92%.
Turning to `CCN(CC)C(=O)c1ccc(N(c2cccc(OC)c2)C2CCN(CCc3cccs3)CC2)cc1`, in experiment [3], the Emax stood at 173%.
In the case of `CCN(CC)C(=O)c1ccc(N(c2cccc(O)c2)C2CCN(CCc3ccccc3F)CC2)cc1`, the Ratio Ki turned out to be 1270 in the experiment listed under Homo sapiens [1] and 342 in the experiment listed under Homo sapiens [2]. Further, in experiment [3], the Emax is 111%.
With `CCN(CC)C(=O)c1ccc(N(c2cccc(O)c2)C2CCN(CCc3ccccn3)CC2)cc1`, the Ratio Ki in the experiment filed under Homo sapiens [1] is 8520; in the experiment filed under Homo sapiens [2] it was 854. The molecule also yielded an Emax in experiment [3] of 98%.
`CCN(CC)C(=O)c1ccc(N(c2cccc(O)c2)C2CCN(CCc3cccs3)CC2)cc1`: the Ratio Ki amounted to 696 in the experiment filed under Homo sapiens [1] and 278 in the experiment listed under Homo sapiens [2]. This molecule came in with an Emax in experiment [3] of 104%.
As to `CCN(CC)C(=O)c1ccc(N(c2cccc(O)c2)C2CCN(CCc3ccco3)CC2)cc1`, the figures for the Ratio Ki in the experiment listed under Homo sapiens [1] and in the experiment filed under Homo sapiens [2] were 632 and 276, respectively. The same molecule came in with an Emax in experiment [3] of 101%.
Taken in the same sequence, the figures for `CCN(CC)C(=O)c1ccc(N(c2cccc(O)c2)C2CCN(CCc3c[nH]cn3)CC2)cc1` were 901, 192 and 105%.
Take `CCN(CC)C(=O)c1ccc(N(c2cccc(O)c2)C2CCN(CCC3CC3)CC2)cc1`: the Ratio Ki in the experiment filed under Homo sapiens [1] was 522; in the experiment filed under Homo sapiens [2] it was 129. Further, the Emax in experiment [3] stood at 80%.
For `CCN(CC)C(=O)c1ccc(N(c2cccc(O)c2)C2CCN(CCc3ccoc3)CC2)cc1`, in that order: 550, 802 and 105%.
As for `C=CCCN1CCC(N(c2ccc(C(=O)N(CC)CC)cc2)c2cccc(O)c2)CC1`, the Ratio Ki turned out to be 96 in the experiment listed under Homo sapiens [1] and 127 in the experiment listed under Homo sapiens [2]. This molecule gave an Emax in experiment [3] of 77%.
Take `CCN(CC)C(=O)c1ccc(N(c2cccc(O)c2)C2CCN(CCc3ncc[nH]3)CC2)cc1`: the values for the Ratio Ki in the experiment listed under Homo sapiens [1] and in the experiment filed under Homo sapiens [2] were 3960 and 4170, respectively. Besides, the Emax in experiment [3] was 118%.
`CCN(CC)C(=O)c1ccc(N(c2cccc(O)c2)C2CCN(CCc3ccncc3)CC2)cc1`: the results for the Ratio Ki in the experiment listed under Homo sapiens [1] and in the experiment listed under Homo sapiens [2] were 4460 and 1510, respectively. For the same molecule, the Emax in experiment [3] was 111%.
In the case of `CCN(CC)C(=O)c1ccc(N(c2cccc(OC)c2)C2CCN(CCc3ccoc3)CC2)cc1`, the Emax in experiment [3] amounted to 115%.
For the molecule `CCN(CC)C(=O)c1ccc(N(c2cccc(O)c2)C2CCN(CCc3ccsc3)CC2)cc1`, the Ratio Ki in the experiment filed under Homo sapiens [1] was determined as 1820; in the experiment listed under Homo sapiens [2], 470. The same molecule came in with an Emax in experiment [3] of 97%.

Broadly, the Emax is the maximal effect, on the per cent scale that the assay sets.
